# PubChem BioAssay AID504761, Drosophila RNAi Screening Center | 2011
# Test: 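Fly genes whose silencing reduces dengue virus type 2 infection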 (primary screen)
# Cells: D.Mel-2 cells from Drosophila
# Reagents: long dsRNA against Drosophila genes
# Challenge: infection with dengue virus type 2; dose and infection time not stated
# Detection: 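Cells stained for dengue envelope protein and imaged; percent of infected cells per well on duplicate plates, ranked by infection, with stained nuclei counted for cell number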
# Reading the numbers: infection score: higher = more virus-infected cells; cell count: higher = more cells in the well
# Call rule: 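Low infection ranks in the two replicates (chance level up to 0.065) followed by a retest with a 1.5-fold or larger significant decrease, p below 0.05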
# Meaning of the calls: active = confirmed: knock-down lowers infection; inactive = not picked or not confirmed
# In all, the deposit lists about 22,000 reagents; this is an unselected part of those with a known target gene and a result. Of all reagents, 116 (0.52%) were called active. 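Calls depend on retest data that are not deposited; infection was ranked per plate without normalising between plates; the unit of the infection score is not given.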 The raw values are shown without normalisation. Entries without a mark were called inactive. A plus sign joins genes that one reagent is predicted to hit. Not given: the amount of reagent, the time to read-out.
gene,dsRNA,"infection score, replicate 1","infection score, replicate 2","cell count, replicate 1","cell count, replicate 2"
CG6398,DRSC19992,4.68,2.35,6384,6295
CG33308,DRSC01419,2.31,1.02,5448,5497
CG5455,DRSC15805,8.78,1.35,6300,6499
CG5455,DRSC27389,11.8,7.2,6683,6225
CG9896,DRSC03962,3.03,0.67,5913,5510
CG9896,DRSC04594,1.74 (active),2.68,6679,6934
bnl (branchless),DRSC13377,1.5,1.95,5925,4722
bnl (branchless),DRSC23212,0.65,1.27,6614,6914
bnl (branchless),DRSC29056,2.19,3.46,731,5807
CG5854,DRSC15894,6.11,6.26,6579,6872
CG5854,DRSC28599,11.8,12.6,5288,4232
His-Psi:CR31754 (pseudo),DRSC22051,1.9,4.18,4643,4717
png (pan gu),DRSC18582,8.85,6.28,7030,5857
png (pan gu),DRSC26812,9.87,4.41,6840,6833
Fkbp59 (FK506-binding protein 59kD),DRSC03323,2.56,5,6608,6382
Fkbp59 (FK506-binding protein 59kD),DRSC28356,23,14.2,5578,2519
CG6707,DRSC10697,5.01,6.89,6223,6371
GATAe,DRSC23209,4.52,21.2,6545,6906
opa (odd paired),DRSC12384,6.27,11.7,6074,6484
opa (odd paired),DRSC23152,1.66,8.26,6505,6184
opa (odd paired),DRSC26411,11.2,2.76,5762,6302

6 of these entries, reformatted:
{"gene":"bnl (branchless)","dsRNA":"DRSC29056","infection score, replicate 1":2.19,"infection score, replicate 2":3.46,"cell count, replicate 1":731,"cell count, replicate 2":5807}
{"gene":"CG5854","dsRNA":"DRSC15894","infection score, replicate 1":6.11,"infection score, replicate 2":6.26,"cell count, replicate 1":6579,"cell count, replicate 2":6872}
{"gene":"CG5854","dsRNA":"DRSC28599","infection score, replicate 1":11.8,"infection score, replicate 2":12.6,"cell count, replicate 1":5288,"cell count, replicate 2":4232}
{"gene":"His-Psi:CR31754 (pseudo)","dsRNA":"DRSC22051","infection score, replicate 1":1.9,"infection score, replicate 2":4.18,"cell count, replicate 1":4643,"cell count, replicate 2":4717}
{"gene":"png (pan gu)","dsRNA":"DRSC18582","infection score, replicate 1":8.85,"infection score, replicate 2":6.28,"cell count, replicate 1":7030,"cell count, replicate 2":5857}
{"gene":"png (pan gu)","dsRNA":"DRSC26812","infection score, replicate 1":9.87,"infection score, replicate 2":4.41,"cell count, replicate 1":6840,"cell count, replicate 2":6833}

The listing continues.
gene,dsRNA,"infection score, replicate 1","infection score, replicate 2","cell count, replicate 1","cell count, replicate 2"
CG11474,DRSC04112,25.6,24.1,5876,5642
CG13793,DRSC02297,5.34,3.78,6536,5950
CG13793,DRSC28252,13.6,10.7,6526,3832
Kdm3 (Lysine demethylase 3),DRSC16393,1.51,3.6,6734,6759
Kdm3 (Lysine demethylase 3),DRSC28659,9.37,19.6,4939,4051
Ns2 (Nucleostemin 2),DRSC06993,0.63,6.17,480,2803
Ns2 (Nucleostemin 2),DRSC29008,,18,247,4087
CG34125,DRSC00850,0.57,1.9,6641,5792
CG7083,DRSC11136,1.86,2.29,5969,6188
CG7083,DRSC24327,6.83,11,6339,6168
Rap1 (Rap1 GTPase),DRSC08686,6.61,13.9,6005,6170
Rap1 (Rap1 GTPase),DRSC25388,18.4,8.32,5813,6607
CG1428,DRSC03708,27.4,15.5,5906,5311
CG18404,DRSC15323,9.2,5.21,6380,6674
Fkbp14 (FK506-binding protein 14),DRSC04615,9.64,5.77,6451,6483
CG33557,DRSC17854,0.81,1.7,6782,7072
CG14570,DRSC11731,2.4,3.42,6617,6427
CG14570,DRSC24676,6.71,10.9,6140,6059
Mettl5 + CG42374,DRSC26961,4.06,10.6,6473,6337
CG8195,DRSC07103,16.5,14.2,4744,6136
CG11693,DRSC14353,5.68,5.28,6475,7060
CG11693,DRSC28503,18,2.13,5755,1877
ry (rosy),DRSC17048,18.1,27.6,5923,5899
ry (rosy),DRSC27399,16.3,13.9,5117,6937
dmpd (dampened),DRSC06092,8.36,11.8,5787,6088
Grx1 (Glutaredoxin 1),DRSC10727,3.84,1.54,6639,6771
Kots (Kotsubu),DRSC16581,6.79,11.1,6704,6920
CG12224,DRSC14480,2.24,4.9,6460,6513
tRNA:Leu-CAA-2-3 (transfer RNA:Leucine-CAA 2-3),DRSC13633,4.55 (active),6.09,5720,6354
CG11291,DRSC04097,5.81,5.38,6485,6808
srl (spargel),DRSC12340,9.07,6.22,6407,6620
srl (spargel),DRSC29561,15.3,18,5575,3725
CG7985,DRSC14128,26.3,20.6,5860,5776
CG7806,DRSC03071,5.77,1.96,6062,6313
Polr1D + DCTN6-p27,DRSC02094,,4.51,490,6763
CG2611,DRSC02710,22.4,10.2,6362,6537
CG2611,DRSC26640,4.57,4.84,6190,6265
